# Mutational tolerance of the Zika virus NS2B-NS3 protease

Source: Ni et al. 2025 (doi:10.1038/s41467-025-63602-z), supplementary data.

The scanned region of Zika virus MR766 is shown below (positions 1-308): NS2B is 2-131, NS3 begins at position 132.
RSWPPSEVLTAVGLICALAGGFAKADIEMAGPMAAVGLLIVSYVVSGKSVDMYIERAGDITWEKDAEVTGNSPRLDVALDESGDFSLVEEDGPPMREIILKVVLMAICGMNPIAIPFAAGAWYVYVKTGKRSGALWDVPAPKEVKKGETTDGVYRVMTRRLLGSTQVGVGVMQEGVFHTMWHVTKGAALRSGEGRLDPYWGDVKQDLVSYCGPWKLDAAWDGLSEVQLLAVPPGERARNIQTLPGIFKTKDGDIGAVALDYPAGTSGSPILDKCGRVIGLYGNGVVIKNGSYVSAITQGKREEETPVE

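Pools of virus carrying all single amino acid changes were selected for growth in Huh-7.5 cells. The effect is the change in frequency of a mutant, normalised to wild type, as a mean of three replicate libraries (two for positions 207-308). The study looked for pockets that tolerate few changes, as a guide for inhibitor design.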

Scale: log2 effect, wild type = 0; the lower, the more harmful to the virus. Substitutions are written as wild-type residue, site number, new residue. All changes here are to glutamine.

For R1Q the result was -8.23. S2Q gave -6.60. With W3Q the assay gave -6.72. P4Q read -6.49. P5Q read -0.75. S6Q read -4.86. With E7Q the assay gave -0.98.

V8Q gave -2.69. L9Q read -4.01. For T10Q the result was -2.26. A11Q gave -5.78. With V12Q the assay gave -5.49. With G13Q the assay gave -5.79. L14Q gave -5.83.

I15Q gave -6.19. C16Q read -6.26. A17Q read -4.45. With L18Q the assay gave -6.55. A19Q read -6.47. With G20Q the assay gave -5.22. G21Q gave -3.99.

For F22Q the result was -2.61. For A23Q the result was 0.09. K24Q read -1.32. A25Q read -3.80. D26Q gave -2.08. I27Q gave -3.07. E28Q gave -0.73.

M29Q read -1.40. For A30Q the result was -2.56. G31Q gave -4.54. With P32Q the assay gave -6.57. M33Q gave -4.16. For A34Q the result was -4.79. A35Q read -6.02.

V36Q read -5.44. With G37Q the assay gave -5.54. L38Q read -6.14. L39Q gave -5.18. I40Q gave -4.70. For V41Q the result was -5.35. S42Q gave -6.06.

With Y43Q the assay gave -5.93. With V44Q the assay gave -5.65. V45Q read -5.47. S46Q read -1.48. G47Q read -5.40. K48Q read -5.07. S49Q gave -4.18.

For V50Q the result was -5.01. For D51Q the result was -4.03. M52Q gave -6.66. For Y53Q the result was -5.48. For I54Q the result was -6.49. E55Q read -1.98. With R56Q the assay gave -2.17.

A57Q read -1.31. With G58Q the assay gave -2.65. For D59Q the result was -4.17. I60Q read -6.60. For T61Q the result was -0.42. With W62Q the assay gave -6.81. E63Q read -1.72.

K64Q gave 0.38.

5 of these entries, quoted again:

* D51Q = -4.03
* G31Q = -4.54
* L14Q = -5.83
* E55Q = -1.98
* M33Q = -4.16

The authors count -1 or higher as tolerated. Position 1 is the last residue of NS2A. Positions 1-103, 104-206 and 207-308 were made and measured as separate libraries. Six mutants with high scores were retested singly and none clearly outgrew wild type, so positive values are not proof of better growth.